Target: CapV (cGAMP activated phospholipase in Vibrio) (Vibrio cholerae, UniProt Q9KVG8)
Settings: 250 nM enzyme, 0.025-2.5 μM nucleotide, room temperature; activator

Protein sequences, listed by entry. Tags and fused reporters are not part of them.
UniProt Q9KVG8, whole entry: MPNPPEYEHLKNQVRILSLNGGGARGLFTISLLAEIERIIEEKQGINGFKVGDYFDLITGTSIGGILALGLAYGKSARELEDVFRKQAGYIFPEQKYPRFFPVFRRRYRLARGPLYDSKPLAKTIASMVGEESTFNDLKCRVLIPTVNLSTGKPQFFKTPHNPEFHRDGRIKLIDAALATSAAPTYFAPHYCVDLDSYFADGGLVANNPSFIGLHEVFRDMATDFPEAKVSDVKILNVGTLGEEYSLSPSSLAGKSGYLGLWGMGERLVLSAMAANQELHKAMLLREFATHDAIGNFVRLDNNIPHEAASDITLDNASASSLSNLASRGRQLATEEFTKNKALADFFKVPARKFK

For `Nc1nc2c(ncn2[C@@H]2O[C@@H]3COP(=O)(O)O[C@H]4[C@@H](O)[C@H](n5cnc6c(N)ncnc65)O[C@@H]4COP(=O)(O)O[C@H]3[C@H]2O)c(=O)[nH]1` [3′3′ cGAMP], the activation was “only activated by the nucleotide synthesized from their adjacently encoded nucleotidyltransferase”.

Reference: publication PMC6544370 (Nature, 2019)
